Compound potency records, mixed from different reports. Data source: NIAID ChemDB in PubChem.

Shared fields: tests in culture; organism: HIV-1; read-out: EC50

Blank or dashed fields: not listed here. a–b is a range or a potency band. Neighbouring rows are from separate reports. ECn is the concentration giving n% inhibition of infection, replication or growth.

SMILES,cells,strain,mutations,method,result
C[C@H](CCC(=O)O)[C@H]1CC[C@H]2[C@@H]3[C@H](OS(=O)(=O)O)C[C@@H]4C[C@H](O)CC[C@]4(C)[C@H]3C[C@H](O)[C@]12C,MT-4,IIIB,-,cytopathic effect / MTT,>500 µg/mL
CC(C)=CC(=O)C[C@@H](C)[C@H]1CC[C@@]2(C)[C@@H]3CC[C@H]4[C@](C)(C(=O)O)[C@@H](O)CC[C@@]45C[C@@]35CC[C@]12C,1A2,MC99 deltaTAT/REV,-,syncytia / β-galactosidase,110 µg/mL
CCc1cn([C@H]2CC[C@@H](CO)O2)c(=O)[nH]c1=O,PBMC,LAV,-,RT activity,4.9 µM
CCCc1cc(=O)oc2c3c(c4c(c12)OC(C)(C)C=C4)O[C@H](C)[C@@H](C)[C@@H]3O,CEM + CEM-SS,NL4-3,RT-V106I,XTT,0.2 µM
CC(C)c1c(C(=O)c2cccc3ccccc23)n(C/C=C/c2ccccc2)c(=O)[nH]c1=O,MT-4,IIIB,-,cytopathic effect / MTT,0.14 µM
Cc1cn([C@H]2C[C@H](N=[N+]=[N-])[C@@H](CO)O2)c(=O)nc1N,Macrophage,DV,-,p24,0.006 µM
[N-]=[N+]=N[C@]1(CO)O[C@@H]([n+]2ccc(N)[nH]c2=O)[C@@H](F)[C@@H]1O,MT-2,NL4-3,-,luciferase,0.3 nM
Nc1nc(N)c2ncn([C@H]3CC[C@H](CO)S3)c2n1,MT-2,IIIB,-,cytopathic effect / MTT,>100 µM
Nc1ccn([C@H]2CO[C@@H](CO)O2)c(=O)n1,PBMC,-,-,-,0.016 µM
C[C@H](CCC(=O)O)[C@H]1CC[C@H]2C3[C@H](O)C[C@@H]4C[C@H](OS(=O)(=O)O)CC[C@]4(C)[C@H]3CC[C@]12C,MT-4,IIIB,-,cytopathic effect / MTT,>335 µg/mL
O=C1Cc2ccccc2C(=O)N1O,MT-4,IIIB,-,MTT,>27.05 µM
O=c1[nH]cnc2c1ncn2[C@H]1CC[C@@](F)(/C=C/P(=O)(O)O)C1,PBMC,LAI,-,RT activity,30 µM
CCc1c(C(=O)c2cccc3ccccc23)n(CC(=O)c2ccc(OC)cc2)c(=O)[nH]c1=O,MT-4,IIIB,-,cytopathic effect / MTT,>28.75 µM
CCCc1cc(=O)oc2c3c(c4c(c12)OC(C)(C)C=C4)O[C@@H](C)[C@H](C)[C@@H]3O,CEM + CEM-SS,NL4-3(RT-4XAZT+L100I),RT-D67N K70R L100I T215Y K219Q,XTT,3 µM
O=C1/C(=C/c2ccc(O)c(O)c2)CNC/C1=C\c1ccc(O)c(O)c1,MT-4,-,-,cytopathic effect / MTT,>21 µM
Nc1nc(Cl)nc2c1ncn2[C@@H]1CC[C@H](CO)S1,MT-2,IIIB,-,cytopathic effect / MTT,>100 µM
Cc1ccc(C(=O)OC[C@H]2O[C@@H](n3cc(-c4cccs4)c(N)nc3=O)C[C@@H]2O)cc1,H9,IIIB,-,RT activity,>10 µg/mL
Cc1cn([C@H]2C[C@H](N=[N+]=[N-])[C@@H](CO)O2)c(=O)nc1N,PBMC,-,-,-,0.15 µM
Nc1ccn([C@H]2CC[C@@H](CO)O2)c(=O)n1,CD4+HELA + HeLa,HXB2,RT-L74V,plaque count,1.28 ± 0.17 µM
Cc1cn([C@H]2CC[C@@H](CO)O2)c(=O)[nH]c1=O,PBMC,LAV,-,RT activity,0.17 µM
O=C(/C=C/c1ccc(O)c(O)c1)CCc1ccccc1,MT-4,-,-,cytopathic effect / MTT,>15 µM
Nc1nc(=O)n([C@@H]2C[C@H](O)[C@@H](CO)O2)cc1-c1ccccc1,H9,IIIB,-,RT activity,>10 µg/mL
O=c1ccn([C@H]2CC[C@@H](CO)O2)c(=O)[nH]1,PBMC,LAV,-,RT activity,96.8 µM
Nc1nc2ncn([C@@H]3CC[C@H](CO)O3)c2c(=O)[nH]1,MT-2,IIIB,-,cytopathic effect / MTT,>100 µM
Nc1nc(=O)n([C@@H]2C[C@H](O)[C@@H](CO)O2)cc1-c1ccco1,H9,IIIB,-,RT activity,>10 µg/mL
O=C(/C=C(O)/C=C/c1ccc(O)cc1)/C=C/c1ccc(O)cc1,MT-4,-,-,cytopathic effect / MTT,>13 µM
C=C(CC[C@@H](C)[C@H]1CC[C@@]2(C)[C@@H]3CC[C@H]4[C@](C)(C(=O)O)[C@@H](O)CC[C@@]45C[C@@]35CC[C@]12C)C(C)C,1A2,MC99 deltaTAT/REV,-,syncytia / β-galactosidase,58.1 µg/mL
CO[P@](=O)(c1cc(C)cc(/C=C/C#N)c1)c1c(C(N)=O)[nH]c2ccc(Cl)cc12,PBMC,-,K103N/Y181C,-,0.0088 µM
N[C@@H](CCC(=O)N[C@@H](CS)C(=O)NCC(=O)O)C(=O)O,MOLT-4,IIIB,-,p24,>3000 µM
COc1cc(/C=C2\CCC/C(=C\c3ccc(O)c(OC)c3)C2=O)ccc1O,MT-4,-,-,cytopathic effect / MTT,>2.4 µM
Nc1ccn([C@H]2C=C[C@@H](CO)O2)c(=O)n1,CD4+HELA + HeLa,HXB2,RT-V75T T215Y,plaque count,1.5 µM
O=c1[nH]cnc2c1ncn2[C@H]1CC[C@@](F)(CCP(=O)(O)O)C1,PBMC,LAI,-,RT activity,10.3 µM
COCn1c(C(=O)c2cccc3ccccc23)c(C(C)C)c(=O)[nH]c1=O,MT-4,IIIB,-,cytopathic effect / MTT,0.88 µM
C[C@H](CCC(=O)O)[C@H]1CC[C@H]2C3[C@H](OS(=O)(=O)O)C[C@@H]4C[C@H](O)CC[C@]4(C)[C@H]3CC[C@]12C,MT-4,IIIB,-,cytopathic effect / MTT,>307 µg/mL
O=C1/C(=C/c2ccc(O)c(O)c2)CSC/C1=C\c1ccc(O)c(O)c1,MT-4,-,-,cytopathic effect / MTT,>4 µM
CC(C)(C)NC(=O)[C@@H]1C[C@@H]2CCCC[C@@H]2CN1C[C@@H](O)[C@H](Cc1ccccc1)NC(=O)[C@H](CC(N)=O)NC(=O)OCc1ccccc1,PBMC,A012 POST-AZT,-,-,0.165 µM
Nc1ncnc2c1ncn2CCOCP(=O)(O)O,PBMC,LAI,-,RT activity,0.42 µM
CCCCCCc1ccsc1-c1cn([C@@H]2C[C@H](OC(=O)c3ccc(C)cc3)[C@@H](COC(=O)c3ccc(C)cc3)O2)c(=O)[nH]c1=O,H9,IIIB,-,RT activity,<1 µg/mL
Nc1nc2c(ncn2[C@H]2CC[C@@H](CO)O2)c(=O)[nH]1,PBMC,LAV,-,RT activity,1.06–2.16 µM
CCc1cc(NCc2nc3c(Cl)ccc(Cl)c3o2)c(=O)[nH]c1C,PBL,D34,-,syncytia,0.03 µM
Nc1nc(Cl)c2ncn([C@H]3CC[C@H](CO)O3)c2n1,MT-2,IIIB,-,cytopathic effect / MTT,>100 µM
O=C1/C(=C/c2ccc(O)c(O)c2)CC/C1=C\c1ccc(O)c(O)c1,MT-4,-,-,cytopathic effect / MTT,>15 µM
Nc1nc(=O)n([C@H]2C[C@H](O)[C@@H](CO)O2)cc1-c1ccsc1,H9,IIIB,-,RT activity,>10 µg/mL
C#CCn1c(C(=O)c2cccc3ccccc23)c(C(C)C)c(=O)[nH]c1=O,MT-4,IIIB,-,cytopathic effect / MTT,≥1.21 µM
Nc1nc(=O)n([C@@H]2C[C@H](O)[C@@H](CO)O2)cc1-c1cccnc1,H9,IIIB,-,RT activity,>10 µg/mL
CC(C)=CCN1Cc2cc(Cl)cc3[nH]c(=S)n(c23)C[C@@H]1C,MT-4,-,RT-L74V K101E,-,<3 µM
Nc1nc(=O)n([C@@H]2C[C@H](O)[C@@H](CO)O2)cc1-c1ccc[se]1,H9,IIIB,-,RT activity,>10 µg/mL
C[C@H](CCC(=O)O)[C@H]1CC[C@H]2C3[C@H](OS(=O)(=O)O)C[C@@H]4C[C@H](OS(=O)(=O)O)CC[C@]4(C)[C@H]3CC[C@]12C,MT-4,IIIB,-,cytopathic effect / MTT,223 µg/mL
O=C(/C=C/c1ccc(O)cc1)/C=C/c1ccc(O)cc1,MT-4,-,-,cytopathic effect / MTT,>1.6 µM
C[C@H](CC(=O)O)[C@H]1CC[C@H]2[C@@H]3CC[C@@H]4C[C@H](OS(=O)(=O)O)CC[C@]4(C)[C@H]3C[C@H](OS(=O)(=O)O)[C@]12C,MT-4,IIIB,-,cytopathic effect / MTT,256 µg/mL
Nc1ncnc2c1ncn2[C@@H]1CC[C@H](CO)S1,MT-2,IIIB,-,cytopathic effect / MTT,>100 µM
C#CCn1c(C(=O)c2cccc3ccccc23)c(CC)c(=O)[nH]c1=O,MT-4,IIIB,-,cytopathic effect / MTT,>4.82 µM
Nc1ccn([C@@H]2CO[C@H](CO)O2)c(=O)n1,PBMC,-,-,-,0.002 µM
CC(C)=CCN1Cc2cccc3[nH]c(=S)n(c23)C[C@@H]1C,PBL,D34,TIBO-resistant,syncytia,75 µM

A second listing of 7 rows from above:

{"SMILES": "COc1cc(/C=C2\\CCC/C(=C\\c3ccc(O)c(OC)c3)C2=O)ccc1O", "cells": "MT-4", "method": "cytopathic effect / MTT", "result": ">2.4 µM"}
{"SMILES": "CC(C)=CC(=O)C[C@@H](C)[C@H]1CC[C@@]2(C)[C@@H]3CC[C@H]4[C@](C)(C(=O)O)[C@@H](O)CC[C@@]45C[C@@]35CC[C@]12C", "cells": "1A2", "strain": "MC99 deltaTAT/REV", "method": "syncytia / β-galactosidase", "result": "110 µg/mL"}
{"SMILES": "C=C(CC[C@@H](C)[C@H]1CC[C@@]2(C)[C@@H]3CC[C@H]4[C@](C)(C(=O)O)[C@@H](O)CC[C@@]45C[C@@]35CC[C@]12C)C(C)C", "cells": "1A2", "strain": "MC99 deltaTAT/REV", "method": "syncytia / β-galactosidase", "result": "58.1 µg/mL"}
{"SMILES": "O=C1/C(=C/c2ccc(O)c(O)c2)CSC/C1=C\\c1ccc(O)c(O)c1", "cells": "MT-4", "method": "cytopathic effect / MTT", "result": ">4 µM"}
{"SMILES": "O=C1/C(=C/c2ccc(O)c(O)c2)CC/C1=C\\c1ccc(O)c(O)c1", "cells": "MT-4", "method": "cytopathic effect / MTT", "result": ">15 µM"}
{"SMILES": "[N-]=[N+]=N[C@]1(CO)O[C@@H]([n+]2ccc(N)[nH]c2=O)[C@@H](F)[C@@H]1O", "cells": "MT-2", "strain": "NL4-3", "method": "luciferase", "result": "0.3 nM"}
{"SMILES": "C[C@H](CCC(=O)O)[C@H]1CC[C@H]2C3[C@H](OS(=O)(=O)O)C[C@@H]4C[C@H](O)CC[C@]4(C)[C@H]3CC[C@]12C", "cells": "MT-4", "strain": "IIIB", "method": "cytopathic effect / MTT", "result": ">307 µg/mL"}